{"source": "PubChem BioAssay AID504761 (Drosophila RNAi Screening Center, 2011)", "purpose": "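Fly genes whose silencing reduces dengue virus type 2 infection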 (primary screen)", "cells": "D.Mel-2 cells from Drosophila", "knock-down reagent": "long dsRNA against Drosophila genes", "challenge": "infection with dengue virus type 2; dose and infection time not stated", "read-out": "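Cells stained for dengue envelope protein and imaged; percent of infected cells per well on duplicate plates, ranked by infection, with stained nuclei counted for cell number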", "reading the numbers": "infection score: higher = more virus-infected cells; cell count: higher = more cells in the well", "hit rule": "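Very low infection ranking in both replicate wells (chance probability at most 0.065), then a retest showing infection dropped 1.5-fold or more at p below 0.05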", "meaning of the calls": "active = confirmed: knock-down lowers infection; inactive = not picked or not confirmed", "note": "The screen tested about 22,000 reagents; this is a random part of those with a known target gene and a result. In the full data, 116 (0.52%) were called active. 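Calls depend on retest data that are not deposited; infection was ranked per plate without normalising between plates; the unit of the infection score is not given.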 Raw values are not corrected between plates. A number with no mark means an inactive call. Further read-outs or replicates are left out here. The record does not give: the amount of reagent, the time to read-out."}
{"predicted target":"Iru","amplicon":"DRSC14457","infection score, replicate 1":9.5,"cell count, replicate 1":5529}
{"predicted target":"spaw","amplicon":"DRSC06824","infection score, replicate 1":4.09,"cell count, replicate 1":6622}
{"predicted target":"Pcyt2","amplicon":"DRSC08531","infection score, replicate 1":9.39,"cell count, replicate 1":5763}
{"predicted target":"Smurf","amplicon":"DRSC07641","infection score, replicate 1":8.72,"cell count, replicate 1":6769}
{"predicted target":"Smurf","amplicon":"DRSC29832","infection score, replicate 1":13.8,"cell count, replicate 1":5928}
{"predicted target":"mal","amplicon":"DRSC20581","infection score, replicate 1":1.83,"cell count, replicate 1":6406}
{"predicted target":"mal","amplicon":"DRSC27085","infection score, replicate 1":4.61,"cell count, replicate 1":6854}
{"predicted target":"CG13949","amplicon":"DRSC00367","infection score, replicate 1":0.89,"cell count, replicate 1":5704}
{"predicted target":"CG13949","amplicon":"DRSC25702","infection score, replicate 1":3,"cell count, replicate 1":6301}

Continued; the last 2 above are carried over.
{"predicted target":"CG13949","amplicon":"DRSC00367","infection score, replicate 1":0.89,"cell count, replicate 1":5704}
{"predicted target":"CG13949","amplicon":"DRSC25702","infection score, replicate 1":3,"cell count, replicate 1":6301}
{"predicted target":"Mhcl","amplicon":"DRSC13130","infection score, replicate 1":7.65,"cell count, replicate 1":5488}
{"predicted target":"Mhcl","amplicon":"DRSC14216","infection score, replicate 1":15.1,"cell count, replicate 1":5263}
{"predicted target":"Mhcl","amplicon":"DRSC16753","infection score, replicate 1":8.39,"cell count, replicate 1":6495}
{"predicted target":"Rexo5","amplicon":"DRSC10981","infection score, replicate 1":5.47,"cell count, replicate 1":6192}
{"predicted target":"Pebp1","amplicon":"DRSC15354","infection score, replicate 1":10.7,"cell count, replicate 1":2423}
{"predicted target":"mus301","amplicon":"DRSC10939","infection score, replicate 1":1.3,"cell count, replicate 1":5921}
{"predicted target":"CG17202","amplicon":"DRSC23073","infection score, replicate 1":6.13,"cell count, replicate 1":6164}
{"predicted target":"CG3649","amplicon":"DRSC04400","infection score, replicate 1":6.15,"cell count, replicate 1":6638}
{"predicted target":"CG3649","amplicon":"DRSC28728","infection score, replicate 1":19.9,"cell count, replicate 1":5546}
{"predicted target":"pinta","amplicon":"DRSC14698","infection score, replicate 1":9.1,"cell count, replicate 1":6099}
{"predicted target":"Rdh1","amplicon":"DRSC06812","infection score, replicate 1":9.85,"cell count, replicate 1":6667}
{"predicted target":"Cyp310a1","amplicon":"DRSC03301","infection score, replicate 1":14.9,"cell count, replicate 1":6039}
{"predicted target":"Cyp310a1","amplicon":"DRSC29160","infection score, replicate 1":18.5,"cell count, replicate 1":4966}
